Compound potency records, mixed from different reports. Data source: NIAID ChemDB in PubChem.

All rows: whole-cell or culture tests; agent: Vaccinia virus; read-out: inhibition

Neighbouring rows are from separate reports. Inhibition is in % at the dose shown (toxicity tests: loss of growth or viability). Blank or dashed fields: not listed here.

compound | strain | cells | tested at | value
Cc1nnc2nc3c(nn12)c1ccccc1n3C | WR | BSC-1 | 60 µg/mL | 90%
CCCn1cnc(=N)c2[nH]cnc21 |  | BSC-1 | 50 µg/mL | 0%
Cn1cc(NC(=O)c2cc(NC(=O)c3cc(NC=O)cn3C)cn2C)cc1C(=O)NCCC(=N)N | Noguchi | BSC-1 | 75 µg/mL | 100%
O=c1c2cnc3cc(F)ccc3c2[nH]n1-c1ccc(F)cc1 | WR | BSC-40 | 100 µM | 55%
CO[C@H]1/C=C/O[C@@]2(C)Oc3c(C)c(O)c4c(O)c(c(/C=N/NC(=O)CN5CCN(c6ccc(Cl)cc6)CC5)c(O)c4c3C2=O)NC(=O)/C(C)=C\C=C\[C@H](C)[C@H](O)[C@@H](C)[C@@H](O)[C@@H](C)[C@H](OC(C)=O)[C@@H]1C |  | L929 | 50 µg/mL | 0%
Cc1ccc(-n2nc3c4ccccc4n(C4O[C@H](CO)[C@@H](O)[C@H]4O)cc-3c2=O)cc1 | WR | BSC-40 | 100 µM | 30%
CO[C@H]1/C=C/O[C@@]2(C)Oc3c(C)c(O)c4c(O)c(c(/C=N/NC(=O)CN5CCN(c6ccc(C(F)(F)F)cc6)CC5)c(O)c4c3C2=O)NC(=O)/C(C)=C\C=C\[C@H](C)[C@H](O)[C@@H](C)[C@@H](O)[C@@H](C)[C@H](OC(C)=O)[C@@H]1C |  | L929 | 50 µg/mL | 0%
COc1ccc(-n2[nH]c3c(cnc4ccc(C)cc43)c2=O)cc1 | WR | BSC-40 | 100 µM | 33%
Cn1cc(NC(=O)c2cc(NC(=O)c3cc([N+](=O)[O-])cn3C)cn2C)cc1C(=O)NCCC(=N)N | Noguchi | BSC-1 | 25 µg/mL | 0%
CO[C@H]1/C=C/O[C@@]2(C)Oc3c(C)c(O)c4c(O)c(c(/C=N/NC(=O)CN5CCN(c6ccc(NC(C)=O)cc6)CC5)c(O)c4c3C2=O)NC(=O)/C(C)=C\C=C\[C@H](C)[C@H](O)[C@@H](C)[C@@H](O)[C@@H](C)[C@H](OC(C)=O)[C@@H]1C |  | L929 | 50 µg/mL | 0%
Cc1ccc2ncc3c(=O)n(-c4ccc(Cl)cc4)[nH]c3c2c1 | WR | BSC-40 | 100 µM | 70%
Cc1cccc(Cn2cnc(=N)c3[nH]cnc32)c1 |  | BSC-1 | 25 µg/mL | 0%
Cc1ccc2ncc3c(=O)n(-c4ccc(F)cc4)[nH]c3c2c1 | WR | BSC-40 | 100 µM | 68%
Cc1ccc(Cn2cnc(=N)c3[nH]cnc32)cc1 |  | BSC-1 | 50 µg/mL | 10%
CO[C@H]1/C=C/O[C@@]2(C)Oc3c(C)c(O)c4c(O)c(c(/C=N/NC(=O)CN5CCN(c6ccc(C#N)cc6)CC5)c(O)c4c3C2=O)NC(=O)/C(C)=C\C=C\[C@H](C)[C@H](O)[C@@H](C)[C@@H](O)[C@@H](C)[C@H](OC(C)=O)[C@@H]1C |  | L929 | 50 µg/mL | 0%
CN1C(=O)NC(=O)N([C@H]2C[C@H](O)[C@@H](CO)O2)C1(C)C |  | VERO | 25 µM | 28%
CO[C@H]1/C=C/O[C@@]2(C)Oc3c(C)c(O)c4c(O)c(c(/C=N/NC(=O)CN5CCN(c6ccc(C(C)(C)C)cc6)CC5)c(O)c4c3C2=O)NC(=O)/C(C)=C\C=C\[C@H](C)[C@H](O)[C@@H](C)[C@@H](O)[C@@H](C)[C@H](OC(C)=O)[C@@H]1C |  | L929 | 50 µg/mL | 0%
CCn1cnc(=N)c2[nH]cnc21 |  | BSC-1 | 6 µg/mL | 0%
CO[C@H]1/C=C/O[C@@]2(C)Oc3c(C)c(O)c4c(O)c(c(/C=N/NC(=O)CN5CCN(c6ccc(F)cc6)CC5)c(O)c4c3C2=O)NC(=O)/C(C)=C\C=C\[C@H](C)[C@H](O)[C@@H](C)[C@@H](O)[C@@H](C)[C@H](OC(C)=O)[C@@H]1C |  | L929 | 50 µg/mL | 0%
COc1ccc(-n2nc3c4cc(C)ccc4n(C4O[C@H](CO)[C@@H](O)[C@H]4O)cc-3c2=O)cc1 | WR | BSC-40 | 100 µM | 48%
CO[C@H]1/C=C/O[C@@]2(C)Oc3c(C)c(O)c4c(O)c(c(/C=N/NC(=O)CN5CCN(c6ccccc6)CC5)c(O)c4c3C2=O)NC(=O)/C(C)=C\C=C\[C@H](C)[C@H](O)[C@@H](C)[C@@H](O)[C@@H](C)[C@H](OC(C)=O)[C@@H]1C |  | L929 | 50 µg/mL | 0%
CN(C)CCN1C(=O)c2cccc3cc(N)cc(c23)C1=O |  | VERO | 4 µg/mL | 0%

The last 3 rows once more:

compound,strain,cells,tested at,value
COc1ccc(-n2nc3c4cc(C)ccc4n(C4O[C@H](CO)[C@@H](O)[C@H]4O)cc-3c2=O)cc1,WR,BSC-40,100 µM,48%
CO[C@H]1/C=C/O[C@@]2(C)Oc3c(C)c(O)c4c(O)c(c(/C=N/NC(=O)CN5CCN(c6ccccc6)CC5)c(O)c4c3C2=O)NC(=O)/C(C)=C\C=C\[C@H](C)[C@H](O)[C@@H](C)[C@@H](O)[C@@H](C)[C@H](OC(C)=O)[C@@H]1C,,L929,50 µg/mL,0%
CN(C)CCN1C(=O)c2cccc3cc(N)cc(c23)C1=O,,VERO,4 µg/mL,0%